Experimental findings from publication doi:10.1101/2024.08.23.608024 are described below.

A weaker result is weaker than the reference pair of the same experiment. For some assays here: Where a protein sequence is shown, tags need not be part of it. For some assays here: The exact form of at least one protein or probe is not confirmed. For some assays here: At least one verdict rests on a figure or table, not on a statement of the authors.

The target of data set [1] is T1, GbpC (glucan-binding protein C), extracellular fragment (Streptococcus mutans) (UniProt Q8DTF1).
T1 sequence (looked up): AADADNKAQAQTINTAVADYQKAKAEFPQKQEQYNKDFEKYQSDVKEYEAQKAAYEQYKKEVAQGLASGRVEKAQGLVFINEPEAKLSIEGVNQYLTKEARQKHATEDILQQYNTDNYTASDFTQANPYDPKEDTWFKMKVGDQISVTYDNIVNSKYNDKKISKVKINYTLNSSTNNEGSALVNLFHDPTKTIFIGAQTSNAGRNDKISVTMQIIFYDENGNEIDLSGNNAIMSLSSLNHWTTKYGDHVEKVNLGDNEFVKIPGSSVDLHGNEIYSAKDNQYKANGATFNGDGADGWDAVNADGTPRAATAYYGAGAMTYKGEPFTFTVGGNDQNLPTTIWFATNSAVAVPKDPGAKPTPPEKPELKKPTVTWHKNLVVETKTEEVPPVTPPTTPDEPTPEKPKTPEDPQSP
Nature of the data set: AlphaScreen. The note with it: residues 111-522.

The subject of data set [2] is AgI/II (antigen I/II) fragment. Description: AlphaScreen.

In the case of “AGATACCAATACGCTGCCATACCCACCCATCACCGAGTCGACACTCACCTAACAGCCGGCCACTGGTAACGACATC [A58]”, the binding result in data set [1] is listed as “binds more weakly”.

Take “AGATACCAATACGCTGCCCCGCCGGTCCCGAGCTACAACACTTTACGCCCCCCTCCCCGCCACTGGTAACGACATC [A96 (flanked)]”: in data set [2], the binding result is reported as “binds more weakly”.

On to “AGATACCAATACGCTGCCTAGCCCCTACCCTGTTGCTCCCCCTCGCCCCTCTCACCCCGCCACTGGTAACGACATC [A39 (flanked)]”, for which the binding result in data set [2] is on record as “binds more weakly”.

“AGATACCAATACGCTGCCTTCTTGAAAAAGGGTAGCGCAGGCCGCTAATGACATAACTGCCACTGGTAACGACATC [A30]”: in data set [2], the binding result is “binds more weakly”.

Turning to “AGATACCAATACGCTGCCTTTCCAATTACGCCATGCATCACCCCTAAAATCTGAATACGCCACTGGTAACGACATC [A65]”, the binding result in data set [2] is listed as “binds more weakly”.
